Reference: US20040197809A1

Target: gp120, the major envelope glycoprotein of HIV-I (HIV-1)
Test: saturation binding of 125I-gp120 in solution, immunoprecipitation with OKT4, Scatchard analysis

detergent solubilized intact CD4 (from UniProt P01730 26-458) (receptor)
Kd: 1.3 nM
